Tested on: H1N1 virus
Parameters: species or system C57BL/6J mice
Details: mouse, in vivo

NC(=O)c1ncn([C@@H]2O[C@H](CO)[C@@H](O)[C@H]2O)n1 [RV, ribavirin, reference compound]
infectious viral titers in pulmonary tissue: significant reduction in the viral burden

— article PMC11273436 (Antibiotics, 2024)
